Changes are numbered by the printed parent chain.
How the values were obtained:
MOW15–22 RBD-hFc [1] = molecular target: T1, MOW15–22 RBD-hFc (MOW15–22 (bat MERSr-CoV sampled in …)); test: BLI
MOW15–22 RBD-hFc [2] = molecular target: T1, MOW15–22 RBD-hFc; test: BLI; apparent KD

B1: soluble dimeric P.nat.M2 ACE2 ectodomain (twin-strep-3×FLAG) (domain or fragment)
chain: QSLTTEEKAREFLDKFNSEAENWSHESALASWDYNTNINDKNAQKMNEADSKWSAFYKEHSKLAQGFPLQEIQNSTIKLQLQILQQNGSSVLTAEKSKRLSTILTTMSTIYSTGKVCNPNNPQQCFTLSGLEDIMEKSKDYHQRLWIWEGWRSEVGKQLRPLYEEYVALKNEMARGNNYKDYGDYWRGDYETEGGDGYNYSRNHLIEDVDRIFLEIKPLYEQLHAYVRAKLMNAYPSRISPTGCLPAHLLGDMWGRFWTNLYNLTVPFEKKQNIDVTDTMKKQSWDAEKIFKEAEKFYLSVGLHNMTPEFWNNSMLTEPSDGRQVVCHPTAWDLGKNDFRIKMCTKVTMDDFLTAHHEMGHIQYDMAYAKQPYLLRNGANEGFHEAVGEIMSLSAATPKHLKDLGLLAQNYPEDYETEINFLLKQALNIVGTLPFTYMLEKWRWMVFEGKIPKEQWMEKWWEMKREIVGVVEPLPHDETYCDPASLFHVANDYSFIRYFTRTILEFQFQEALCQIANHTGPLHKCDISNSTEAGKQLKNMLELGKSKPWTFALEQIARTKEMDAKPLLNYFKPLFSWLKELNGNSVGWSADWSPYSEQSIKVRISLKSALGEKAYEWNDNEMYLFRSSVAYAMRVYFLKVKNETIPFRAEDVWVSDEKIRVSFKFFVTSPTNVSDIIPRSEVEDAIRMSRGRINDAFRLDDKTLEFLGIQPTLGPPYQPPVT
MOW15–22 RBD-hFc [1]
  koff: 0.000246 s⁻¹
MOW15–22 RBD-hFc [2]
  Kd: 3.75 nM

B2: soluble dimeric P.nat.M1 ACE2 ectodomain (twin-strep-3×FLAG) (domain or fragment)
chain: B1 chain with L581Q
MOW15–22 RBD-hFc [2]
  Kd: 10.8 nM

Source: publication PMC12360793 (2025)
